Experimental data from PMC5504357, “Antifungal Potential of Copper(II), Manganese(II) and Silver(I) 1,10-Phenanthroline Chelates Against Multidrug-Resistant Fungal Species Forming the Candida haemulonii Complex: Impact on the Planktonic and Biofilm Lifestyles” (Frontiers in Microbiology, 2017).

Test system: A549 cells
Experiment: Mammalian cell toxicity (MTT assay) and selectivity index
Format: cell-based, Human
Settings: for C. duobushaemulonii (SI) / C. haemulonii (SI) / C. haemulonii var. vulnera (SI): CC50/GM-MIC; for Overall mean (SI): mean of the SI values against the three species, ratio CC50 / MIC
Description: Three clinical isolates of each species that form the C. haemulonii complex were used in this study: C. haemulonii (LIPCh4 from finger nail, LIPCh7 from toe nail, and LIPCh12 from blood), C. duobushaemulonii (LIPCh1 from finger nail, LIPCh6 from toe nail, and LIPCh8 from blood) and C. haemulonii var. vulnera (LIPCh5 from toe nail, LIPCh9 from urine, and LIPCh11 from blood) (Ramos et al., [2015]). The fungal isolates were identified by the automatized system VITEK® 2 and then characterized by ITS1-5.8S-ITS2 gene sequencing (Ramos et al., [2015]). Fungal cells were cultured in Sabouraud-dextrose medium under constant agitation (130 rpm) for 48 h at 37°C. Human lung adenocarcinoma A549 cells were maintained in culture flasks containing DMEM medium supplemented with 10% fetal bovine serum at 37°C in an atmosphere of 5% CO2.
The cytotoxicity was evaluated using the MTT [3-(4,5-dimethylthiazol-2-yl)-2,5-diphenyl tetrazolium bromide] (Sigma-Aldrich) assay (Mosmann, [1983]). A549 cells (10^4) were seeded into tissue culture plates (TPP, Switzerland) and cultured for 24 h at 37°C in a 5% CO2 in order to obtain cellular confluence. The wells were then washed twice with DMEM to remove non-adherent cells and the test compounds were added (in concentrations ranging from 0.0313 to 512 μg/mL) to plates containing DMEM, followed by a 48 h incubation period under the same conditions mentioned above. The cellular viability was evaluated by adding MTT to each well and incubating the plates in the dark for 3 h, allowing the viable cells containing active mitochondrial dehydrogenase enzymes to metabolize MTT-tetrazolium salt into purple formazan. The formazan crystals were then dissolved in DMSO (100 μL) and the absorbance (450 nm) measured using a Thermomax Molecular Device microplate reader. The concentration capable of reducing cellular viability by 50% (CC50) was calculated, and the selectivity index (SI) determined using the following equation: A549 CC50/C. haemulonii complex GM-MIC.

[Ag+].[O-][Cl+3]([O-])([O-])[O-].c1cnc2c(c1)ccc1cccnc12.c1cnc2c(c1)ccc1cccnc12 [compound 17, [Ag(phen)2]ClO4]
C. duobushaemulonii (SI): 1.30
C. haemulonii (SI): 2.07
C. haemulonii var. vulnera (SI): 3.29
Overall mean (SI): 2.22

O=C1C(=O)c2cccnc2-c2ncccc21 [phendione, 1,10-phenanthroline-5,6-dione, reference compound]
C. duobushaemulonii (SI): 0.80
C. haemulonii (SI): 1.01
C. haemulonii var. vulnera (SI): 1.01
Overall mean (SI): 0.94

{[Mn(3,6,9-tdda)(phen)2].3H2O.EtOH}n [compound 14]
C. duobushaemulonii (SI): 82.42
C. haemulonii (SI): 130.84
C. haemulonii var. vulnera (SI): 130.84
Overall mean (SI): 114.70

CCO.CCO.O=C([O-])c1ccc(C(=O)[O-])cc1.O=C([O-])c1ccc(C(=O)[O-])cc1.[Cu+2].[Cu+2].c1cnc2c(c1)ccc1cccnc12.c1cnc2c(c1)ccc1cccnc12.c1cnc2c(c1)ccc1cccnc12.c1cnc2c(c1)ccc1cccnc12 [compound 4, [{Cu(phen)2}2(terph)](terph).13.5H2O.2EtOH]
C. duobushaemulonii (SI): <0.12
C. haemulonii (SI): <0.12
C. haemulonii var. vulnera (SI): 0.12

CCO.O=C([O-])COCCOCCOCC(=O)[O-].[Ag+].[Ag+].c1cnc2c(c1)ccc1cccnc12.c1cnc2c(c1)ccc1cccnc12.c1cnc2c(c1)ccc1cccnc12.c1cnc2c(c1)ccc1cccnc12 [compound 16, [Ag2(3,6,9-tdda)(phen)4].EtOH]
C. duobushaemulonii (SI): 1.75
C. haemulonii (SI): 2.21
C. haemulonii var. vulnera (SI): 2.78
Overall mean (SI): 2.25

O.O.O.O.O.O=C([O-])c1ccccc1C(=O)[O-].[Mn+2].c1cnc2c(c1)ccc1cccnc12.c1cnc2c(c1)ccc1cccnc12 [compound 9, [Mn(ph)(phen)2(H2O)].4H2O]
C. duobushaemulonii (SI): 129.67
C. haemulonii (SI): 129.67
C. haemulonii var. vulnera (SI): 129.67
Overall mean (SI): 129.67

O.O.O=C([O-])c1ccccc1C(=O)[O-].[Mn+2].c1cnc2c(c1)ccc1cccnc12 [compound 8, [Mn(ph)(phen)(H2O)2]]
C. duobushaemulonii (SI): 46.53
C. haemulonii (SI): 46.53
C. haemulonii var. vulnera (SI): 58.63
Overall mean (SI): 50.56

O=C1C(=O)c2cccnc2-c2ncccc21.O=C1C(=O)c2cccnc2-c2ncccc21.[Ag+].[O-][Cl+3]([O-])([O-])[O-] [compound 15, [Ag(phendione)2]ClO4]
C. duobushaemulonii (SI): 1.88
C. haemulonii (SI): 3.76
C. haemulonii var. vulnera (SI): 2.98
Overall mean (SI): 2.87

{[Cu(3,6,9-tdda)(phen)2].3H2O.EtOH}n [compound 7]
C. duobushaemulonii (SI): 0.53
C. haemulonii (SI): 0.33
C. haemulonii var. vulnera (SI): 0.42
Overall mean (SI): 0.43

O.O.O.O.O=C1C(=O)c2cccnc2-c2ncccc21.O=C1C(=O)c2cccnc2-c2ncccc21.O=C1C(=O)c2cccnc2-c2ncccc21.[Cu+2].[O-][Cl+3]([O-])([O-])[O-].[O-][Cl+3]([O-])([O-])[O-] [compound 6, [Cu(phendione)3](ClO4)2.4H2O]
C. duobushaemulonii (SI): 0.09
C. haemulonii (SI): 0.04
C. haemulonii var. vulnera (SI): 0.11
Overall mean (SI): 0.08

c1cnc2c(c1)ccc1cccnc12 [phen, 1,10-phenanthroline]
C. duobushaemulonii (SI): 4.30
C. haemulonii (SI): 4.30
C. haemulonii var. vulnera (SI): 5.42
Overall mean (SI): 4.67

[Cl][Cu][Cl] [CuCl2, reference compound]
C. duobushaemulonii (SI): >3.87
C. haemulonii (SI): >3.87
C. haemulonii var. vulnera (SI): >3.87
Overall mean (SI): >3.87

O.O.O.O.O.O.O=C([O-])CCCCCCC(=O)[O-].O=C([O-])CCCCCCC(=O)[O-].O=C([O-])CCCCCCC(=O)[O-].O=C([O-])CCCCCCC(=O)[O-].[Mn+2].[Mn+2].[Mn+2].[Mn+2].c1cnc2c(c1)ccc1cccnc12.c1cnc2c(c1)ccc1cccnc12.c1cnc2c(c1)ccc1cccnc12.c1cnc2c(c1)ccc1cccnc12.c1cnc2c(c1)ccc1cccnc12.c1cnc2c(c1)ccc1cccnc12.c1cnc2c(c1)ccc1cccnc12.c1cnc2c(c1)ccc1cccnc12 [compound 13, [Mn2(oda)(phen)4(H2O)2][Mn2(oda)(phen)4(oda)2].4H2O]
C. duobushaemulonii (SI): >203.19
C. haemulonii (SI): >256
C. haemulonii var. vulnera (SI): >256
Overall mean (SI): >236.40

O.O.O.O.O.O=C([O-])c1ccc(C(=O)[O-])cc1.[Mn+2].c1cnc2c(c1)ccc1cccnc12.c1cnc2c(c1)ccc1cccnc12 [compound 12, [Mn(tereph)(phen)2].5H2O]
C. duobushaemulonii (SI): 62.99
C. haemulonii (SI): 62.99
C. haemulonii var. vulnera (SI): 62.99
Overall mean (SI): 62.99

O.O.O.O=C([O-])CCCCCCCCCC(=O)[O-].[Ag+].[Ag+].c1cnc2c(c1)ccc1cccnc12.c1cnc2c(c1)ccc1cccnc12.c1cnc2c(c1)ccc1cccnc12 [compound 18, [Ag2(phen)3(udda)].3H2O]
C. duobushaemulonii (SI): 27.26
C. haemulonii (SI): 86.55
C. haemulonii var. vulnera (SI): 54.52
Overall mean (SI): 56.11

CCO.CCO.O.O.O.O=C([O-])c1ccccc1C(=O)[O-].[Cu+2].c1cnc2c(c1)ccc1cccnc12.c1cnc2c(c1)ccc1cccnc12 [compound 2, [Cu(ph)(phen)2].3H2O.2EtOH]
C. duobushaemulonii (SI): <0.06
C. haemulonii (SI): <0.06
C. haemulonii var. vulnera (SI): <0.06
Overall mean (SI): <0.06

O.O.O=C([O-])c1ccccc1C(=O)[O-].[Cu+2].c1cnc2c(c1)ccc1cccnc12 [compound 1, [Cu(ph)(phen)(H2O)2]]
C. duobushaemulonii (SI): <0.02
C. haemulonii (SI): <0.02
C. haemulonii var. vulnera (SI): <0.02
Overall mean (SI): <0.02

CCO.O=C([O-])CCCCCCC(=O)[O-].[Cu+2].[Cu+2].[O-][Cl+3]([O-])([O-])[O-].[O-][Cl+3]([O-])([O-])[O-].c1cnc2c(c1)ccc1cccnc12.c1cnc2c(c1)ccc1cccnc12.c1cnc2c(c1)ccc1cccnc12.c1cnc2c(c1)ccc1cccnc12 [compound 5, [Cu2(oda)(phen)4](ClO4)2.2.76H2O.EtOH]
C. duobushaemulonii (SI): 0.12
C. haemulonii (SI): 0.10
C. haemulonii var. vulnera (SI): 0.10
Overall mean (SI): 0.11
